Results of unrelated studies side by side (data: NIAID ChemDB).

Shared fields: tests in culture

Two numbers with a dash give a range or band.

structure	organism	strain	cells	read by	endpoint	tested at	result
CCc1cn([C@@H]2O[C@H](CO)[C@@H](O)[C@@H]2O)c(=O)[nH]c1=O	Varicella zoster virus	YS	HELF	plaque count	inhibition	1000 µg/mL	61%
CCOC(=O)c1c(C)nc(NCCCCNc2ccnc3cc(Cl)ccc23)nc1-c1ccc(F)cc1	Cryptococcus gattii	ATCC 32608			MIC99		16 µg/mL
Cc1cn([C@@H]2O[C@H](CO)[C@@H](O)[C@@H]2O)c(=O)[nH]c1=O	Varicella zoster virus	Kawaguchi	HELF	plaque count	inhibition	1 µg/mL	100%
C=CCc1ccc(O)c(OC)c1	Candida parapsilosis	2615		turbidity	MIC90		490 µg/mL
O=C(NCc1ccccc1)c1c2n(c(=O)n1-c1ccc(OC(F)(F)F)cc1)CCN(C(=O)c1ccc(Cl)c(Cl)c1)C2	Hepatitis B virus		HepG2.117	PCR	EC50		>5 µM
CCO/N=C/c1ccc(OCCC2CCN(c3ccc(Cl)nn3)CC2)cc1	Rhinovirus	JM1 (ICAM-1 receptor group 91)	KB	neutral red	EC50		0.258 µM
Oc1ccccc1N=Cc1ccc(O)c(O)c1O	Cryptococcus gattii	135L/03			MIC99		11.3 µg/mL
O=S(=O)(O)c1ccc2cc(O)c(S(=O)(=O)O)cc2c1	Herpes simplex virus		Human conjunctiva cells	cytopathic effect	inhibition	10 µg/mL	0%
Cc1cc(CCCOc2c(C)cc(-c3noc(C(F)(F)F)n3)cc2C)on1	Rhinovirus	Isolate 22	OHIO HELA-I	cytopathic effect / visual reading	EC50		0.03 µg/mL
O=S(=O)([O-])c1ccc(O)c2ccccc12	Adenovirus	TYPE 3	Human embryonic lung cells	cytopathic effect	inhibition	5 µg/mL	0%
COc1ccc(-n2c(C(=O)NCc3ccccc3)c3n(c2=O)CCN(c2ncnc4cc(Cl)ccc24)C3)cc1	Hepatitis B virus		HepG2.117	PCR	EC50		>5 µM
CCOC(=O)c1c(C)nc(NCCCCNc2ccnc3cc(Cl)ccc23)nc1-c1ccccc1[N+](=O)[O-]	Cryptococcus neoformans	ATCC 62066			MIC99		8 µg/mL
O=C(O)c1ccc(S(=O)(=O)[O-])cc1C(=O)O	Adenovirus	TYPE 3	Human embryonic lung cells	cytopathic effect	inhibition	10 µg/mL	0%
O=C(NCc1ccccc1-c1ccccn1)c1c2n(c(=O)n1-c1ccc(OCC(F)(F)F)cc1)CCN(C(=O)c1ccc(Br)c(Cl)c1)C2	Hepatitis B virus		HepG2.117	PCR	EC50		<0.1 µM
O=S(=O)(O)c1cc(O)c2c(O)cc(S(=O)(=O)O)cc2c1	Herpes simplex virus		Human amnion AV3 cells	cytopathic effect	inhibition	5 µg/mL	0%
O=c1[nH]c(=O)n([C@@H]2O[C@H](CO)[C@@H](O)[C@@H]2O)cc1/C=C/Cl	Varicella zoster virus	Asahikawa	HELF	plaque count	inhibition	0.001 µg/mL	63%
C[C@H](NC(=O)c1c2n(c(=O)n1-c1ccc(OCC(F)(F)F)cc1)CCN(C(=O)c1ccc(Br)c(Cl)c1)C2)c1ccc(OC(C)(C)C(N)=O)cc1F	Hepatitis B virus		HepG2.117	PCR	EC50		0.1–0.5 µM
Cc1cn([C@@H]2O[C@H](CO)[C@@H](O)[C@@H]2F)c(=O)nc1N	Varicella zoster virus	Asahikawa	HELF	plaque count	inhibition	0.1 µg/mL	100%
O=C(O)c1cc(S(=O)(=O)[O-])ccc1O	Adenovirus	TYPE 3	Human embryonic lung cells	cytopathic effect	inhibition	5 µg/mL	0%
Cc1nc(NCCCCNc2ccnc3cc(Cl)ccc23)nc(-c2ccccc2[N+](=O)[O-])c1C(=O)OC(C)C	Cryptococcus gattii	196L/03			MIC99		8 µg/mL
CCC(CC)[C@H](NC(C)=O)[C@@H]1[C@H](O)[C@@H](C(=O)O)C[C@H]1N=C(N)N	Influenza A virus	H1N1 A/NWS/33	MDCK	visual reading	EC50		8.9 µM
Cn1cc(C(=O)NCc2ccc(Cl)cc2)c(=O)c2cc(CN3CCOCC3)ccc21	Varicella zoster virus	DE varicella isolate	HFF	plaque count	inhibition	1.8 µM	90%
CCC(CC)O[C@@H]1C=C(C(=O)O)C[C@H](N)[C@H]1NC(C)=O	Influenza A virus	H1N1 isolate C31D	MDCK	plaque count	EC50		0.08 µg/mL
O=C(Nc1c(S(=O)(=O)[O-])cc2cc(S(=O)(=O)[O-])cc(O)c2c1O)c1ccccc1	Herpes simplex virus		Human amnion AV3 cells	cytopathic effect	inhibition	5 µg/mL	5%
O=C(NCc1ccc(Cl)cc1)c1c[nH]c2ccc(CCCO)cc2c1=O	Varicella zoster virus	CAR		plaque count	EC50		0.1 µM
Cc1nc(NCCCCNc2ccnc3cc(Cl)ccc23)nc(-c2ccccc2)c1C(=O)OC(C)C	Cryptococcus neoformans	WP			MIC99		5.7 µg/mL
Nc1nc2c(ncn2COC(CO)CO)c(=O)[nH]1	Human cytomegalovirus	VR6200 (ganciclovir-susceptible)		plaque count	EC50		3.3 µM
CCOC(=O)c1c(C)nc(NCCCCNc2ccnc3cc(Cl)ccc23)nc1-c1ccccc1	Cryptococcus neoformans	27JF			MIC99		16 µg/mL
Nc1nc(=O)n([C@@H]2O[C@H](CO)[C@@H](O)[C@@H]2F)cc1I	Varicella zoster virus	Ohtomo	HELF	plaque count	inhibition	0.001 µg/mL	10%

For reference, 2 entries again:

structure | organism | strain | cells | read by | endpoint | tested at | result
CCc1cn([C@@H]2O[C@H](CO)[C@@H](O)[C@@H]2O)c(=O)[nH]c1=O | Varicella zoster virus | YS | HELF | plaque count | inhibition | 1000 µg/mL | 61%
CCO/N=C/c1ccc(OCCC2CCN(c3ccc(Cl)nn3)CC2)cc1 | Rhinovirus | JM1 (ICAM-1 receptor group 91) | KB | neutral red | EC50 |  | 0.258 µM

Percent inhibition refers to the dose given; in toxicity tests it is the harm to the cells. Blank or dashed fields: not listed here. MIC50, MIC90 and the like: level of inhibition, or share of isolates inhibited. Conditions beyond the fields shown may differ between rows. ECn: concentration that inhibits the pathogen or its effect by n%.